Target: HIV-1YU2gp120 (HIV-1 YU2), P35961
Test: method not given

Kd | Binder
9 nM | RINNIPWSEAMM (modifications not checked) [HNG-124]
12 nM | RINNIPWSEAMM (modifications not checked) [HNG-113]

Source: patent US20100104580A1, “Altered Immunogenic Landscape in HIV-1 Envelope Proteins” (priority 2008, published 2010)
